The source of these data is patent US20250066365A1, “Ribonucleoside Analogues Against -Sars-Cov-2” (priority 2021, published 2025).

Like-named read-outs stand apart in the source and are kept apart here.

Series [1] has as its system SARS-CoV-2 USA_WA1/2020 strain. The format is cell-based. The following applies: Vero 76 cells.
Series [2] deals with SARS-CoV-2 USA_WA1/2020 strain. The series is described as follows: Activity against SARS-CoV-2 in Vero E6 cells (cytopathic effect, visual and neutral red). The format is cell-based. A general note: Protection from cytopathic effect is a common read-out in antiviral testing.
Where [3] appears, read: Neutral red (Cytopathic effect/Toxicity).
Where [4] appears, read: Visual (Cytopathic effect/Toxicity).

Turning to `C=Cc1cc([C@@H]2O[C@H](CO)[C@@H](O)[C@H]2O)n2ncnc(N)c12` [Compound 4.2a, 7-Vinyl-4-aza-7,9-dideazaadenosine], the SI50 in series [1] (setting [3]) is given as 29; in series [1] (setting [4]), above 32.

As for `Nc1ncnn2c([C@@H]3O[C@H](CO)[C@@H](O)[C@H]3O)cc(/C=C/c3ccccn3)c12` [Compound 4.2b, 7-((E)-2-(Pyridin-2-yl)vinyl)-4-aza-7,9-dideazaadenosine], the SI50 is recorded as above 3.2 in series [1] (setting [3]) and 0 in series [1] (setting [4]).

For the compound `Cc1ccc(/C=C/c2cc([C@@H]3O[C@H](CO)[C@@H](O)[C@H]3O)n3ncnc(N)c23)cc1` [Compound 4.2c, 7-((E)-4-Methylstyryl)-4-aza-7,9-dideazaadnosine], the SI50 was 150 in series [1] (setting [3]) and 100 in series [1] (setting [4]).

Regarding `Nc1ncnn2c([C@@H]3O[C@H](CO)[C@@H](O)[C@H]3O)cc(/C=C/c3ccc(F)cc3)c12` [Compound 4.2d, 7-((E)-4-Fluorostyryl)-4-aza-7,9-dideazaadenosine], the SI50 in series [1] (setting [3]) and in series [1] (setting [4]) was 0 throughout.

On to `Nc1ncnn2c([C@@H]3O[C@H](CO)[C@@H](O)[C@H]3O)cc(/C=C/c3ccc(C(F)(F)F)cc3)c12` [Compound 4.2e, 7-((E)-4-(Trifluoromethyl)styryl)-4-aza-7,9-dideazaadenosine], for which the SI50 in series [1] (setting [3]) and in series [1] (setting [4]) was 0 throughout.

For `Nc1ncnn2c([C@@H]3O[C@H](CO)[C@@H](O)[C@H]3O)cc(/C=C/c3ccc(Cl)cc3)c12` [Compound 4.2f, 7-((E)-4-Chlorostyryl)-4-aza-7,9-dideazaadenosine], the SI50 in series [2] (setting [3]) and in series [2] (setting [4]) was 0 in each case.

Turning to `Nc1ncnn2c([C@@H]3O[C@H](CO)[C@@H](O)[C@H]3O)cc(/C=C/c3cccc(F)c3)c12` [Compound 4.2g, 7-((E)-3-Fluorostyryl)-4-aza-7,9-dideazaadenosine], the SI50 in series [2] (setting [3]) and in series [2] (setting [4]) was 0 each time.

Consider `Nc1ncnn2c([C@@H]3O[C@H](CO)[C@@H](O)[C@H]3O)cc(/C=C/C3CC3)c12` [Compound 4.2h, 7-((E)-2-Cyclopropylvinyl)-4-aza-7,9-dideazaadenosine], for which the SI50 in series [2] (setting [3]) and in series [2] (setting [4]) was 0 each time.

Consider `Nc1ncnn2c([C@@H]3O[C@H](CO)[C@@H](O)[C@H]3O)cc(/C=C/C3CCCC3)c12` [Compound 4.2i, 7-((E)-2-Cyclopentylvinyl)-4-aza-7,9-dideazaadenosine], for which the SI50 in series [2] (setting [3]) and in series [2] (setting [4]) was 0 throughout.

As to `Nc1ncnn2c([C@@H]3O[C@H](CO)[C@@H](O)[C@H]3O)cc(/C=C/c3cccs3)c12` [Compound 4.2j, 7-((E)-2-(Thiophen-2-yl)vinyl)-4-aza-7,9-dideazaadenosine], the SI50 in series [2] (setting [3]) and in series [2] (setting [4]) was 0 in each case.

With `Nc1ncnn2c([C@@H]3O[C@H](CO)[C@@H](O)[C@H]3O)cc(/C=C/c3ccsc3)c12` [Compound 4.2k, 7-((E)-2-(Thiophen-3-yl)vinyl)-4-aza-7,9-dideazaadenosine], the SI50 in series [2] (setting [3]) and in series [2] (setting [4]) was 0 throughout.

In the case of `Nc1ncnn2c([C@@H]3O[C@H](CO)[C@@H](O)[C@H]3O)cc(/C=C/C3CCCCC3)c12` [Compound 4.2l, 7-((E)-2-Cyclohexylvinyl)-4-aza-7,9-dideazaadenosine], the SI50 in series [2] (setting [3]) and in series [2] (setting [4]) was 0 each time.

As to `CCC/C=C/c1cc([C@@H]2O[C@H](CO)[C@@H](O)[C@H]2O)n2ncnc(N)c12` [Compound 4.2m, 7-((E)-pent-1-en-1-yl)-4-aza-7,9-dideazaadenosine], the SI50 in series [2] (setting [3]) and in series [2] (setting [4]) was 0 in each case.

On to `O=c1nc(NO)ccn1[C@@H]1O[C@H](CO)[C@@H](O)[C@H]1O` [EIDD-1931, β-D-N^4-Hydroxycytidine, reference compound], for which the SI50 in series [2] (setting [3]) is 73; in series [2] (setting [4]) it was 190.
